Measurements reported in PubChem BioAssay AID504761 (Drosophila RNAi Screening Center, 2011).
Test: 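Insect host genes that dengue virus relies on to spread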 (primary screen). System: D.Mel-2 cells from Drosophila. Reagents: long dsRNA against Drosophila genes. Treatment: infection with dengue virus type 2; dose and infection time not stated. Detection: 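Per well on two replicate plates, imaging gave the percent of cells positive for viral envelope protein, ranked by infection, and a nuclear count of cells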. Direction: infection score: higher = more virus-infected cells; cell count: higher = more cells in the well. Active means: 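Very low infection ranking in both replicate wells (chance probability at most 0.065), then a retest showing infection dropped 1.5-fold or more at p below 0.05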. Meaning of the calls: active = confirmed: knock-down lowers infection; inactive = not picked or not confirmed.
The deposit covers about 22,000 reagents; shown is a random part of those that have a named target and a result. Over the whole deposit, 116 (0.52%) were called active. 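Calls depend on retest data that are not deposited; infection was ranked per plate without normalising between plates; the unit of the infection score is not given.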 Raw values vary from plate to plate and are shown uncorrected. Entries without a mark were called inactive. A plus sign joins genes that one reagent is predicted to hit. Not all columns of the deposit are shown. The record does not give: the amount of reagent, the time to read-out.

CG9928 (GeneID 34704) [DRSC03274] scored infection score, replicate 1 = 5.73; cell count, replicate 1 = 6164.
For CG14966 (GeneID 38390) [DRSC08425], the values are infection score, replicate 1 = 0.49; cell count, replicate 1 = 6268.
For CrebA (GeneID 39682) [DRSC11122], the values are infection score, replicate 1 = 8.07; cell count, replicate 1 = 6146.
After knock-down of CG12620 (GeneID 35034) [DRSC02177], the screen gave infection score, replicate 1 = 2.74; cell count, replicate 1 = 6850.
CG12620 (GeneID 35034) [DRSC24601] showed infection score, replicate 1 = 4.8; cell count, replicate 1 = 6172.
Knock-down of RpS29 + snoRNA:Psi18S-1275 [DRSC16433] gave: infection score, replicate 1 = 14.5; cell count, replicate 1 = 3297.
CG10486 (GeneID 38664) [DRSC09735] showed infection score, replicate 1 = 1.06; cell count, replicate 1 = 6158.
Depletion of AdamTS-A (GeneID 41887) [DRSC14992] resulted in: infection score, replicate 1 = 11.1; cell count, replicate 1 = 6054.
After knock-down of AdamTS-A (GeneID 41887) [DRSC15966] the results were infection score, replicate 1 = 5.59; cell count, replicate 1 = 6209.
Against CG15209 (GeneID 32011) [DRSC19655] the deposit lists infection score, replicate 1 = 11; cell count, replicate 1 = 6446.
CG9986 (GeneID 43386) [DRSC16586] scored infection score, replicate 1 = 5.52; cell count, replicate 1 = 5854.
For CG9986 (GeneID 43386) [DRSC29323] the deposit lists infection score, replicate 1 = 14.8; cell count, replicate 1 = 2661.
Cyp12b2 (GeneID 37163) [DRSC07364] scored infection score, replicate 1 = 2.21; cell count, replicate 1 = 6659.
Silencing of tow (GeneID 38755) [DRSC23125] came out at: infection score, replicate 1 = 0.65; cell count, replicate 1 = 6319.
Against tow (GeneID 38755) [DRSC26759], the entry reads infection score, replicate 1 = 2.34; cell count, replicate 1 = 6277.
After knock-down of CG30389 (GeneID 37410) [DRSC04077], the record shows infection score, replicate 1 = 3.93; cell count, replicate 1 = 5961.
CG30389 (GeneID 37410) [DRSC04452] scored infection score, replicate 1 = 10.6; cell count, replicate 1 = 5133.
Against CG30389 (GeneID 37410) [DRSC26370], the values are infection score, replicate 1 = 12.8; cell count, replicate 1 = 6450.
Knock-down of Glys (GeneID 41823) [DRSC16130] resulted in: infection score, replicate 1 = 18.1; cell count, replicate 1 = 5390.
CG9962 (GeneID 33448) [DRSC00739] showed infection score, replicate 1 = 1.85; cell count, replicate 1 = 6604.
Depletion of CG9962 (GeneID 33448) [DRSC27772] gave: infection score, replicate 1 = 3.98; cell count, replicate 1 = 6401.
Against Dh44-R2 (GeneID 36368) [DRSC06141], the entry reads infection score, replicate 1 = 30.7; cell count, replicate 1 = 6010.
Against Dh44-R2 (GeneID 36368) [DRSC06281], the values are infection score, replicate 1 = 11.1; cell count, replicate 1 = 3746.
After knock-down of thoc7 (GeneID 38033) [DRSC08512], the screen gave infection score, replicate 1 = 2.32; cell count, replicate 1 = 6470.
Against thoc7 (GeneID 38033) [DRSC29470], the values are infection score, replicate 1 = 14.3; cell count, replicate 1 = 4509.
For CG1545 (GeneID 32036) [DRSC21532] the deposit lists infection score, replicate 1 = 3.16; cell count, replicate 1 = 5863.
pasi1 (GeneID 42139) [DRSC16299] gave infection score, replicate 1 = 4.79; cell count, replicate 1 = 6093.
pasi1 (GeneID 42139) [DRSC22385] showed infection score, replicate 1 = 2.09; cell count, replicate 1 = 6472.
Knock-down of pasi1 (GeneID 42139) [DRSC26688] came out at: infection score, replicate 1 = 0.74; cell count, replicate 1 = 6505.

4 entries from above, set out differently.
gene | amplicon | infection score, replicate 1 | cell count, replicate 1
tow (GeneID 38755) | DRSC23125 | 0.65 | 6319
tow (GeneID 38755) | DRSC26759 | 2.34 | 6277
CG30389 (GeneID 37410) | DRSC04077 | 3.93 | 5961
CG30389 (GeneID 37410) | DRSC04452 | 10.6 | 5133
